Results of unrelated studies side by side (data: NIAID ChemDB).

Shared fields: tests on isolated targets; agent: HIV-1; target: Reverse transcriptase

Neighbouring rows are from separate reports. Fold resistance: result on the changed form divided by that on wild type. ICn is the concentration giving n% inhibition. An empty or dashed field is not shown.

{"compound": "Nc1ncnc2c1ncn2CCOCP(=O)(O)OP(=O)(O)OP(=O)(O)O", "mutations": "RT-M184V", "method": "nucleotide incorporation / radiometric", "endpoint": "Ki", "value": "0.12 µM"}
{"compound": "CC(C)(C)OC(=O)Cn1cnc2c(Oc3ccccc3[N+](=O)[O-])nc(NC(=O)OCc3ccccc3)nc21", "strain": "NNRTI-resistant", "mutations": "K103N", "method": "nucleotide incorporation / radiometric", "endpoint": "Ki", "value": "331 µM"}
{"compound": "Nc1ncnc2c1ncn2[C@H]1CC[C@@H](COP(=O)(O)OP(=O)(O)OP(=O)(O)O)O1", "mutations": "RT-L74V", "method": "nucleotide incorporation / radiometric", "endpoint": "fold resistance", "value": "3.21"}
{"compound": "O=c1c2cccn2ccn1CCNC(=S)Nc1ccc(Br)cn1", "mutations": "RT-Y188L", "method": "nucleotide incorporation", "endpoint": "fold resistance", "value": "33.9"}
{"compound": "Cc1c(Sc2ccccc2)n(COCCO)c(=O)[nH]c1=O", "mutations": "RT-Y188L", "endpoint": "IC50", "value": ">5 µM"}
{"compound": "O=c1c2cccn2c2cccc(F)c2n1CCNC(=S)Nc1ccc(Br)cn1", "mutations": "RT-Y181I", "method": "nucleotide incorporation", "endpoint": "Ki", "value": "0.2 µM"}
{"compound": "Nc1ccn([C@H]2CC[C@@H](COP(=O)(O)OP(=O)(O)OP(=O)(O)O)O2)c(=O)n1", "mutations": "RT-T215Y", "method": "nucleotide incorporation / radiometric", "endpoint": "Ki", "value": "0.62 µM"}
{"compound": "Cc1cn([C@H]2CC[C@@H](COP(=O)(O)OP(=O)(O)OP(=O)(O)O)O2)c(=O)[nH]c1=O", "mutations": "RT-K103N", "method": "RT activity", "endpoint": "Ki", "value": "0.015 µM"}
{"compound": "Cc1cc2c(cc1C)n1cccc1c(=O)n2CCNC(=S)Nc1ccc(Br)cn1", "method": "nucleotide incorporation", "endpoint": "Ki", "value": "0.05 µM"}
{"compound": "Cc1cn([C@H]2C=C[C@@H](COP(=O)(O)OP(=O)(O)OP(=O)(O)O)O2)c(=O)[nH]c1=O", "method": "nucleotide incorporation / radiometric", "endpoint": "Ki", "value": "0.28 µM"}
{"compound": "O=c1c2cccn2c2cc(Cl)c(Cl)cc2n1CCNC(=S)Nc1ccc(Br)cn1", "mutations": "RT-Y188L", "method": "nucleotide incorporation", "endpoint": "Ki", "value": "0.15 µM"}
{"compound": "Cc1cn([C@H]2CC[C@@H](COP(=O)(O)OP(=O)(O)OP(=O)(O)O)O2)c(=O)[nH]c1=O", "mutations": "RT-I135M", "method": "nucleotide incorporation / radiometric", "endpoint": "fold resistance", "value": "0.9"}
{"compound": "COc1ccc(/C=C/NC(=O)Nc2ccc(Cl)cn2)cc1OC", "mutations": "RT-Y181I", "method": "nucleotide incorporation", "endpoint": "Ki", "value": ">20 µM"}
{"compound": "O=C(O)Cn1cnc2c(Oc3ccccc3[N+](=O)[O-])nc(NC(=O)OCc3ccccc3)nc21", "strain": "NNRTI-resistant", "mutations": "L100I", "method": "nucleotide incorporation / radiometric", "endpoint": "Ki", "value": "43 µM"}
{"compound": "O=P(O)(O)OP(=O)(O)O", "endpoint": "Ki", "value": "1200 µM"}

Repeating the final 2 entries:

compound,strain,mutations,method,endpoint,value
O=C(O)Cn1cnc2c(Oc3ccccc3[N+](=O)[O-])nc(NC(=O)OCc3ccccc3)nc21,NNRTI-resistant,L100I,nucleotide incorporation / radiometric,Ki,43 µM
O=P(O)(O)OP(=O)(O)O,,,,Ki,1200 µM